These results are taken from patent US10195189B2, “2-phenethenyltetrahydro isoquinolines useful as anti-HIV compounds” (priority 2014, dated 2019).

The test system of the series is HIV-1 NL4-3 viral clone expressing Renilla luciferase. It is filed as cell-based. Conditions: ratio of CC50 over EC50. An outline of the steps: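 MT-2 cells (2×10^4/well) were infected at MOI 0.027 with Renilla-luciferase HIV-1 NL4-3 alongside 3-fold compound dilutions for 96 h. Spread was read by EnduRen luminescence and supernatant infectivity on TZM-bl (48 h, MUG fluorescence). Mock-infected cytotoxicity used AlamarBlue. % inhibition versus solvent was fitted by 4-parameter logistic (0–100% constrained) for EC50/CC50.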
For `COc1cc(C)c(/C=C/C2c3cc(OC)c(OCc4ccccc4)cc3CCN2C(=O)c2cccnc2N)cc1OCc1ccccc1` (stereo not shown) [Example K, (2-Amino-3-pyridyl)-[6-benzyloxy-1-[(E)-2-(5-benzyloxy-4-methoxy-2-methyl-phenyl)vinyl]-7-methoxy-3,4-dihydro-1H-isoquinoline-2-yl]methanone], the SI was determined as 34.72.
As to `COC(=O)N1CCc2cc(OCc3ccccc3)c(OC)cc2C1/C=C/c1ccc(OC)c(OCc2ccccc2)c1` (stereo not shown) [Example L, Methyl 6-benzyloxy-1-[(E)-2-(3-benzyloxy-4-methoxy-phenyl)vinyl]-7-methoxy-3,4-dihydro-1H-isoquinoline-2-carboxylate], the SI is reported as 7.11.
As to `COc1cc(C)c(/C=C/C2c3cc(OC)c(OCc4ccccc4)cc3CCN2C(=O)c2ccccn2)cc1OCc1ccccc1` (stereo not shown) [Example M, [6-benzyloxy-1-[(E)-2-(5-benzyloxy-4-methoxy-2-methyl-phenyl)vinyl]-7-methoxy-3,4-dihydro-1H-isoquinolin-2-yl]-(2-pyridyl)methanone], the SI worked out at 47.8.
In the case of `COc1cc(C)c(/C=C/C2c3cc(OC)c(OCc4ccccc4)cc3CCN2C(=O)c2ccnc(N)c2)cc1OCc1ccccc1` (stereo not shown) [Example N, (2-amino-4-pyridyl)-[6-benzyloxy-1-[(E)-2-(5-benzyloxy-4-methoxy-2-methyl-phenyl)vinyl]-7-methoxy-3,4-dihydro-1H-isoquinolin-2-yl]methanone], the SI stood at 49.3.
With `COc1cc(C)c(/C=C/C2c3cc(OC)c(OCc4ccccc4)cc3CCN2C(=O)NC(C)(C)C)cc1OCc1ccccc1` (stereo not shown) [Example O, 6-benzyloxy-1-[(E)-2-(5-benzyloxy-4-methoxy-2-methyl-phenyl)vinyl]-N-tert-butyl-7-methoxy-3,4-dihydro-1H-isoquinoline-2-carboxamide], the SI is listed as greater than 5.
On to `COc1cc(C)c(/C=C/C2c3cc(OC)c(OCc4ccccc4)cc3CCN2C(=O)c2ccc(N)nc2)cc1OCc1ccccc1` (stereo not shown) [Example P, (6-amino-3-pyridyl)-[6-benzyloxy-1-[(E)-2-(5-benzyloxy-4-methoxy-2-methyl-phenyl)vinyl]-7-methoxy-3,4-dihydro-1H-isoquinolin-2-yl]methanone], for which the SI is given as 59.17.
As to `COc1cc(C)c(CCC2NCCc3cc(OCc4ccccc4)c(OC)cc32)cc1OCc1ccccc1` (stereo not shown) [Example Q, 6-benzyloxy-1-[2-(5-benzyloxy-4-methoxy-2-methyl-phenyl)ethyl]-7-methoxy-1,2,3,4-tetrahydroisoquinoline], the SI was 3.8.
For `COc1cc(C)c(/C=C/C2c3cc(OC)c(OCc4ccccc4)cc3CCN2C(N)=O)cc1OCc1ccccc1` (stereo not shown) [Example R, 6-benzyloxy-1-[(E)-2-(5-benzyloxy-4-methoxy-2-methyl-phenyl)vinyl]-7-methoxy-3,4-dihydro-1H-isoquinoline-2-carboxamide], the SI came to 33.1.
As for `COc1cc(/C=C/C2NCCc3cc(OC)c(OCc4ccccc4)cc32)ccc1OCc1ccccc1` (stereo not shown) [Example S, 7-benzyloxy-1-[(E)-2-(4-benzyloxy-3-methoxy-phenyl)vinyl]-6-methoxy-1,2,3,4-tetrahydroisoquinoline], the figure is 8.3.
Turning to `COc1cc(C)c(/C=C/C2c3cc(OC)c(OCc4ccccc4)cc3CCN2C(=O)c2cccnc2)cc1OCc1ccccc1` (stereo not shown) [Example T, [6-benzyloxy-1-[(E)-2-(5-benzyloxy-4-methoxy-2-methyl-phenyl)vinyl]-7-methoxy-3,4-dihydro-1H-isoquinolin-2-yl]-(3-pyridyl)methanone], the SI was 107.
The value for `COc1cc(C)c(/C=C/C2c3cc(OC)c(OCc4ccccc4)cc3CCN2C(=O)c2ccncc2)cc1OCc1ccccc1` (stereo not shown) [Example U, [6-benzyloxy-1-[(E)-2-(5-benzyloxy-4-methoxy-2-methyl-phenyl)vinyl]-7-methoxy-3,4-dihydro-1H-isoquinolin-2-yl]-(4-pyridyl)methanone] was greater than 115; that for `COc1ccc(/C=C/C2c3cc(OC)c(OCc4ccccc4)cc3CCN2C)cc1OCc1ccccc1` (stereo not shown) [Example V, 6-benzyloxy-1-[(E)-2-(3-benzyloxy-4-methoxy-phenyl)vinyl]-7-methoxy-2-methyl-3,4-dihydro-1H-isoquinoline] was 8.5.
Turning to `COc1cc2c(cc1OCc1ccccc1)CCNC2/C=C/c1ccccc1C` (stereo not shown) [Example W, 6-benzyloxy-7-methoxy-1-[(E)-2-(o-tolyl)vinyl]-1,2,3,4-tetrahydroisoquinoline], the SI is given as 5.8.
Take `COc1cc2c(cc1OCc1ccccc1)CCNC2/C=C/c1ccc(F)cc1C` (stereo not shown) [Example X, 6-benzyloxy-1-[(E)-2-(4-fluoro-2-methyl-phenyl)vinyl]-7-methoxy-1,2,3,4-tetrahydroisoquinoline]: the SI amounted to 8.53.
For `COc1cc(C)c(/C=C/C2c3cc(OC)c(OCc4ccccc4)cc3CCN2C(=O)OC(C)(C)C)cc1OCc1ccccc1` (stereo not shown) [Example Y, tert-butyl 6-benzyloxy-1-[(E)-2-(5-benzyloxy-4-methoxy-2-methyl-phenyl)vinyl]-7-methoxy-3,4-dihydro-1H-isoquinoline-2-carboxylate], the SI is on record as 71.2.
As to `COc1ccc(/C=C/C2NCCc3cc(OCc4ccccc4)c(OC)cc32)c(C(F)(F)F)c1` (stereo not shown) [Example Z, 6-benzyloxy-7-methoxy-1-[(E)-2-[4-methoxy-2-(trifluoromethyl)phenyl]vinyl]-1,2,3,4-tetrahydroisoquinoline], the SI was found to be 17.1.
